Positions that govern dimerization of the HIV-1 5' RNA

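Mutant RNA libraries with 1G, 2G or 3G starts, with or without cap, were folded at 37 °C for 30 min. Monomer and dimer bands were cut from native gels after folding in high salt (300 mM KCl, 5 mM MgCl2) or low salt (40 mM KCl, 0.1 mM MgCl2). Mutation frequencies in the two bands give Kdimer.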

Sequence of the HIV-1 NL4-3 5' RNA, positions 1 to 437, as numbered in the source:
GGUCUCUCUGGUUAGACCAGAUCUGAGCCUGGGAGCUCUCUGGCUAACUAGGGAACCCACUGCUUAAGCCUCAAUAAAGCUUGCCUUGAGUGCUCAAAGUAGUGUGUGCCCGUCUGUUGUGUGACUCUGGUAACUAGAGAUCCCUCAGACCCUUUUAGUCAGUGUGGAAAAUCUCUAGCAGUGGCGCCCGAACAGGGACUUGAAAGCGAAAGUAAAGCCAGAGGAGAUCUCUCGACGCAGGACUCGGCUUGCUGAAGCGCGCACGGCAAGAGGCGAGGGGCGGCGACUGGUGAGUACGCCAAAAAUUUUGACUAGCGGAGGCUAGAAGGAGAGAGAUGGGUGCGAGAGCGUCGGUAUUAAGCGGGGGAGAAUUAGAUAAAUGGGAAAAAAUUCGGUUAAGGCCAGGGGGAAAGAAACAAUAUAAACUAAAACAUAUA

Values are log2 Kdimer, the median over the changes at each position: higher means that changes there hinder dimer formation, below 0 that they favour it.
One numbering serves 1G, 2G and 3G.
A position is written with its base where known.

| position | 3G capped high-salt | 1G capped high-salt | 2G capped low-salt |
|---|---|---|---|
| G88 | -0.01 | 0.28 | -0.06 |
| A303 | -0.01 | -0.05 | -0.02 |
| U230 | 0.53 | 0.45 | 0.67 |
| A138 | 0.05 | -0.02 | 0.50 |
| G102 | -0.49 | -0.11 | -0.22 |
| A389 | -0.01 | 0.11 | 0.02 |
| 439 | 0.05 | 0.10 | 0.07 |
| A78 | 0.05 | -0.15 | 0.03 |
| G366 | 0.01 | 0.03 | 0.02 |
| G285 | 0.83 | 0.97 | 0.95 |
| 510 | 0.01 | 0.15 | 0.08 |
| U37 | -0.27 | 0.00 | -0.13 |
| G290 | 0.27 | 0.38 | 0.18 |
| C175 | -0.21 | -0.32 | -0.38 |
| G354 | -0.07 | -0.03 | -0.63 |
| G35 | -0.59 | 0.03 | -0.55 |
| U201 | 0.10 | 0.15 | -0.09 |
| A222 | -0.22 | -0.13 | 0.40 |
| C322 | 0.22 | 0.20 | 0.70 |
| 451 | 0.16 | 0.15 | 0.00 |
| A399 | 0.13 | 0.06 | 0.00 |
| U163 | 0.05 | 0.09 | -0.04 |
| A73 | 0.03 | 0.18 | -0.01 |
| 473 | 0.11 | 0.07 | 0.06 |
| 509 | 0.05 | -0.07 | 0.05 |
| 504 | -0.02 | -0.02 | 0.03 |
| C23 | 0.41 | -0.57 | 0.01 |
| U434 | -0.17 | -0.13 | -0.20 |
| G408 | -0.02 | 0.07 | 0.01 |
| G266 | 5.20 | 4.32 | 3.22 |
| C109 | 0.10 | -0.13 | 0.39 |
| A390 | 0.02 | 0.04 | -0.09 |
| A268 | 3.29 | 3.00 | 2.63 |
| A216 | -0.49 | -0.27 | -0.62 |
| G346 | 0.03 | 0.15 | 0.20 |
| U307 | 0.09 | 0.12 | -0.11 |
| C60 | 0.18 | 0.61 | 0.16 |
| 492 | -0.09 | 0.04 | 0.07 |
| 458 | 0.06 | 0.05 | 0.10 |
| A157 | 0.09 | 0.03 | -0.11 |

Excerpt, the final 3 entries:

position 492: 3G capped high-salt -0.09; 1G capped high-salt 0.04; 2G capped low-salt 0.07.
position 458: 3G capped high-salt 0.06; 1G capped high-salt 0.05; 2G capped low-salt 0.10.
A157: 3G capped high-salt 0.09; 1G capped high-salt 0.03; 2G capped low-salt -0.11.

The source gives no letters past position 437.

Source: Ye et al. 2022 (doi:10.1038/s41594-022-00746-2), supplementary data.